PubChem BioAssay AID504761, Drosophila RNAi Screening Center, 2011
Purpose: 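Genome-wide fly cell screen for genes dengue virus requires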 (primary screen). System: D.Mel-2 cells from Drosophila. Reagent: long dsRNA against Drosophila genes. Challenge: infection with dengue virus type 2; dose and infection time not stated. Read-out: 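Cells stained for dengue envelope protein and imaged; percent of infected cells per well on duplicate plates, ranked by infection, with stained nuclei counted for cell number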. Reading the numbers: infection score: higher = more virus-infected cells; cell count: higher = more cells in the well. Active means: 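Low infection ranks in the two replicates (chance level up to 0.065) followed by a retest with a 1.5-fold or larger significant decrease, p below 0.05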. Meaning of the calls: active = confirmed: knock-down lowers infection; inactive = not picked or not confirmed.
The screen tested about 22,000 reagents; shown is a random part of those that have a named target and a result. Over the whole deposit, 116 (0.52%) got an active call. 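Calls depend on retest data that are not deposited; infection was ranked per plate without normalising between plates; the unit of the infection score is not given.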 Raw values vary from plate to plate and are shown uncorrected. A number with no mark means an inactive call. Reagent sequences are not shown. Not given: the amount of reagent, the time to read-out.

CG1999 [DRSC18199] — infection score, replicate 1 = 1.8; infection score, replicate 2 = 4; cell count, replicate 1 = 6558; cell count, replicate 2 = 6708
CG1999 [DRSC29137] — infection score, replicate 1 = 0.84; cell count, replicate 1 = 474; cell count, replicate 2 = 301
CG7724 [DRSC10905] — infection score, replicate 1 = 8.44; infection score, replicate 2 = 14; cell count, replicate 1 = 6376; cell count, replicate 2 = 5932
Spn42Db (Serpin 42Db) [DRSC05009] — infection score, replicate 1 = 24.5; cell count, replicate 1 = 5968; cell count, replicate 2 = 398
D12 [DRSC03311] — infection score, replicate 1 = 1.62; infection score, replicate 2 = 13.9; cell count, replicate 1 = 6465; cell count, replicate 2 = 4804
CG30428 [DRSC04041] — infection score, replicate 1 = 3.71; infection score, replicate 2 = 4.17; cell count, replicate 1 = 5659; cell count, replicate 2 = 5803
CG30428 [DRSC28228] — infection score, replicate 1 = 22.7; infection score, replicate 2 = 10.5; cell count, replicate 1 = 5242; cell count, replicate 2 = 4312
CG31205 [DRSC13438] — infection score, replicate 1 = 1.92; infection score, replicate 2 = 2.11; cell count, replicate 1 = 6391; cell count, replicate 2 = 5723
CG31205 [DRSC26824] — infection score, replicate 1 = 6.89; infection score, replicate 2 = 11.9; cell count, replicate 1 = 6674; cell count, replicate 2 = 6780
CG12773 [DRSC18580] — infection score, replicate 1 = 2.49; infection score, replicate 2 = 10.4; cell count, replicate 1 = 5791; cell count, replicate 2 = 6603
CG12773 [DRSC24900] — infection score, replicate 1 = 2.34; infection score, replicate 2 = 3.48; cell count, replicate 1 = 6406; cell count, replicate 2 = 6128
CG11425 [DRSC11657] — infection score, replicate 1 = 4.16; infection score, replicate 2 = 2.5; cell count, replicate 1 = 5835; cell count, replicate 2 = 5771
CG11425 [DRSC28400] — infection score, replicate 2 = 3.02; cell count, replicate 1 = 401; cell count, replicate 2 = 1591
